Like-named read-outs stand apart in the source and are kept apart here. The match of structure and compound is tentative.
Tested on: HCMV (strain AD169)
Test: Inhibition of HCMV replication, plaque reduction assay (PRA, Hs-68 cells)
Assay type: cell-based, human cytomegalovirus
Details: read-out: PRA CMV EC50
Protocol: C) Inhibition of Human Cytomegalovirus (HCMV) replication
The effect of compounds on the replication of HCMV has been measured by using an ELISA-based assay (ELISA) and a plaque reduction assay (PRA).
Hs-68 cells ( ATCC # CRL 1635) were seeded in 12-well plates at 83,000 cells/well in 1 mL of DMEM medium (Gibco Canada Inc.) supplemented with 10% fetal bovine serum (FBS, Gibco Canada Inc.). The plates were incubated for 3 days at 37° to allow the cells to reach 80-90% confluency prior to the assay.
The medium was removed from the cells by aspiration. The cells were then infected with approximately 50 PFU of HCMV (strain AD169, ATCC VR-538) in DMEM medium supplemented with 5% inactivated FBS (assay medium). The virus was allowed to adsorb to cells for 2 h at 37°. Following viral adsorption, the medium was removed from the wells by aspiration. The cells were then incubated with or without 1 mL of appropriate concentrations of test reagent in assay medium. After 4 days of incubation at 37°, the medium was exchanged with fresh medium containing test compound and 4 days later the cells were fixed with 1% aqueous formaldehyde and stained with a 2% crystal violet solution in 20% ethanol in water. Microscopic plaques were counted using a stereomicroscope. Drug effects were calculated as a percent reduction in the number of plaques in the presence of each drug concentration compared to the number observed in the absence of drug. Ganciclovir was used as a positive control in all experiments.
The EC50 values obtained according to this assay for certain thiazolyl derivatives of this invention are listed in the following tables under the heading PRA CMV.

Structure (SMILES): Nc1nc(-c2ccc(NC(=O)CN(Cc3ccccc3)C(=O)C3CCCCC3)cc2)cs1 [Example 4, N-{2-{{4-(2-Amino-4-thiazolyl)phenyl)amino}-2-oxoethyl}-N-(phenylmethyl)cyclohexanecarboxamide]
- EC50 (Group 2, Table 1): 10 µM
- EC50 (Group 3, Table 1): 7 µM

Structure (SMILES): Nc1nc(-c2ccc(NC(=O)CN(Cc3cccs3)C(=O)C3CCCCC3)cc2)cs1
- EC50 (Group 3, Table 1): 5.8 µM

Structure (SMILES): Nc1nc(-c2ccc(NC(=O)CN(Cc3ccccc3)C(=O)Cc3ccccn3)cc2)cs1
- EC50 (Group 2, Table 1): 2 µM
- EC50 (Group 3, Table 1): 16 µM

Structure (SMILES): CC(=O)N(CC(=O)Nc1ccc(-c2csc(N)n2)cc1)Cc1ccccc1
- EC50 (Group 3, Table 1): 7 µM

Structure (SMILES): Nc1nc(-c2ccc(NC(=O)CN(Cc3ccccc3)C(=O)CC3CCCC3)cc2)cs1
- EC50 (Group 3, Table 1): 14 µM

Structure (SMILES): Nc1nc(-c2ccc(NC(=O)CN(Cc3ccccc3)C(=O)c3cnccn3)cc2)cs1
- EC50 (Group 2, Table 1): 2.4 µM
- EC50 (Group 3, Table 1): 7 µM

Structure (SMILES): Nc1nc(-c2ccc(NC(=O)CN(Cc3ccccc3)C(=O)CC3CCCCC3)cc2)cs1
- EC50 (Group 3, Table 1): 16 µM

Structure (SMILES): Nc1nc(-c2ccc(NC(=O)CN(Cc3ccccn3)C(=O)C3CCCCC3)cc2)cs1
- EC50 (Group 3, Table 1): 14 µM

Structure (SMILES): CC(C)(C)C(=O)N(CC(=O)Nc1ccc(-c2csc(N)n2)cc1)Cc1ccccc1
- EC50 (Group 3, Table 1): 5.3 µM

Structure (SMILES): CC1(C(=O)N(CC(=O)Nc2ccc(-c3csc(N)n3)cc2)Cc2ccccc2)CCCCC1
- EC50 (Group 2, Table 1): 2.2 µM
- EC50 (Group 3, Table 1): 7.7 µM

Structure (SMILES): CC(C)(C)CC(=O)N(CC(=O)Nc1ccc(-c2csc(N)n2)cc1)Cc1ccccc1
- EC50 (Group 3, Table 1): 15 µM

Structure (SMILES): Nc1nc(-c2ccc(NC(=O)CN(Cc3ccccc3)C(=O)c3cccs3)cc2)cs1
- EC50 (Group 2, Table 1): 2 µM
- EC50 (Group 3, Table 1): 4.5 µM

Structure (SMILES): Nc1nc(-c2ccc(NC(=O)CN(Cc3ccccc3)C(=O)C3CCCC3)cc2)cs1
- EC50 (Group 2, Table 1): 3 µM
- EC50 (Group 3, Table 1): 7 µM

Structure (SMILES): Nc1nc(-c2ccc(NC(=O)CN(Cc3ccccc3)C(=O)C3CCCCCC3)cc2)cs1
- EC50 (Group 3, Table 1): 11 µM

Structure (SMILES): Nc1nc(-c2ccc(NC(=O)CN(Cc3cccnc3)C(=O)C3CCCCC3)cc2)cs1
- EC50 (Group 3, Table 1): 7.3 µM

Structure (SMILES): Nc1nc(-c2ccc(NC(=O)CN(CCc3ccccn3)C(=O)C3CCCCC3)cc2)cs1
- EC50 (Group 3, Table 1): 14 µM

Structure (SMILES): CC(C)(C)OC(=O)N1CCC(C(=O)N(CC(=O)Nc2ccc(-c3csc(N)n3)cc2)Cc2ccccc2)CC1
- EC50 (Group 3, Table 1): 3 µM

Structure (SMILES): COc1ccc(CN(CC(=O)Nc2ccc(-c3csc(N)n3)cc2)C(=O)C2CCCCC2)cc1
- EC50 (Group 3, Table 1): 13 µM

Structure (SMILES): CC(C)C(=O)N(CC(=O)Nc1ccc(-c2csc(N)n2)cc1)Cc1ccccc1
- EC50 (Group 3, Table 1): 12 µM
